PubChem BioAssay AID504761 | Drosophila RNAi Screening Center – 2011

- Assay: 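Fly genes whose silencing reduces dengue virus type 2 infection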 (primary screen)
- Cell system: D.Mel-2 cells from Drosophila
- Reagents: long dsRNA against Drosophila genes
- Treatment: infection with dengue virus type 2; dose and infection time not stated
- Read-out: 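Cells stained for dengue envelope protein and imaged; percent of infected cells per well on duplicate plates, ranked by infection, with stained nuclei counted for cell number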
- Scale: infection score: higher = more virus-infected cells; cell count: higher = more cells in the well
- Active means: 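Very low infection ranking in both replicate wells (chance probability at most 0.065), then a retest showing infection dropped 1.5-fold or more at p below 0.05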
- Meaning of the calls: active = confirmed: knock-down lowers infection; inactive = not picked or not confirmed
In all, the deposit lists about 22,000 reagents; below is a random part of those that have a named target and a result. Of all reagents, 116 (0.52%) got an active call. 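Calls depend on retest data that are not deposited; infection was ranked per plate without normalising between plates; the unit of the infection score is not given.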 The raw values are shown without normalisation. Reagent sequences are not shown. Not given: the amount of reagent, the time to read-out.

{"target": "CG12998", "DRSC id": "DRSC19518", "infection score, replicate 1": 0.78, "infection score, replicate 2": 2.85, "cell count, replicate 1": 6790, "cell count, replicate 2": 6177, "Call": "inactive"}
{"target": "glob3", "DRSC id": "DRSC12261", "infection score, replicate 1": 1.13, "infection score, replicate 2": 1.47, "cell count, replicate 1": 6291, "cell count, replicate 2": 5930, "Call": "active"}
{"target": "CG10341", "DRSC id": "DRSC02040", "infection score, replicate 1": 16.7, "infection score, replicate 2": 14.1, "cell count, replicate 1": 5807, "cell count, replicate 2": 6042, "Call": "inactive"}
{"target": "cad", "DRSC id": "DRSC23193", "infection score, replicate 1": 3.86, "infection score, replicate 2": 32.9, "cell count, replicate 1": 5991, "cell count, replicate 2": 5722, "Call": "inactive"}
{"target": "cad", "DRSC id": "DRSC27989", "infection score, replicate 1": 11.7, "infection score, replicate 2": 28.4, "cell count, replicate 1": 6814, "cell count, replicate 2": 5622, "Call": "inactive"}
{"target": "CR30374", "DRSC id": "DRSC05080", "infection score, replicate 1": 0.01, "infection score, replicate 2": 0.88, "cell count, replicate 1": 6785, "cell count, replicate 2": 6470, "Call": "inactive"}
{"target": "5PtaseI", "DRSC id": "DRSC16269", "infection score, replicate 1": 3.5, "infection score, replicate 2": 3.7, "cell count, replicate 1": 6545, "cell count, replicate 2": 6492, "Call": "inactive"}
{"target": "5PtaseI", "DRSC id": "DRSC22090", "infection score, replicate 1": 1.01, "infection score, replicate 2": 2.25, "cell count, replicate 1": 6548, "cell count, replicate 2": 6680, "Call": "inactive"}
{"target": "5PtaseI", "DRSC id": "DRSC28773", "infection score, replicate 1": 1.07, "cell count, replicate 1": 749, "cell count, replicate 2": 399, "Call": "inactive"}

Records listed so far whose gene name begins with C or c (5):
{"target": "CG12998", "DRSC id": "DRSC19518", "infection score, replicate 1": 0.78, "infection score, replicate 2": 2.85, "cell count, replicate 1": 6790, "cell count, replicate 2": 6177, "Call": "inactive"}
{"target": "CG10341", "DRSC id": "DRSC02040", "infection score, replicate 1": 16.7, "infection score, replicate 2": 14.1, "cell count, replicate 1": 5807, "cell count, replicate 2": 6042, "Call": "inactive"}
{"target": "cad", "DRSC id": "DRSC23193", "infection score, replicate 1": 3.86, "infection score, replicate 2": 32.9, "cell count, replicate 1": 5991, "cell count, replicate 2": 5722, "Call": "inactive"}
{"target": "cad", "DRSC id": "DRSC27989", "infection score, replicate 1": 11.7, "infection score, replicate 2": 28.4, "cell count, replicate 1": 6814, "cell count, replicate 2": 5622, "Call": "inactive"}
{"target": "CR30374", "DRSC id": "DRSC05080", "infection score, replicate 1": 0.01, "infection score, replicate 2": 0.88, "cell count, replicate 1": 6785, "cell count, replicate 2": 6470, "Call": "inactive"}

Further records follow:
{"target": "CG15919", "DRSC id": "DRSC06594", "infection score, replicate 1": 8.73, "infection score, replicate 2": 2.42, "cell count, replicate 1": 6277, "cell count, replicate 2": 6416, "Call": "inactive"}
{"target": "ncm", "DRSC id": "DRSC02179", "infection score, replicate 1": 5.47, "infection score, replicate 2": 14.2, "cell count, replicate 1": 3547, "cell count, replicate 2": 3361, "Call": "inactive"}
{"target": "ncm", "DRSC id": "DRSC29504", "infection score, replicate 2": 0.57, "cell count, replicate 1": 265, "cell count, replicate 2": 350, "Call": "inactive"}
{"target": "ps", "DRSC id": "DRSC15149", "infection score, replicate 1": 1.26, "infection score, replicate 2": 4.37, "cell count, replicate 1": 7052, "cell count, replicate 2": 6545, "Call": "inactive"}
{"target": "ps", "DRSC id": "DRSC16388", "infection score, replicate 1": 0.79, "infection score, replicate 2": 6.3, "cell count, replicate 1": 4826, "cell count, replicate 2": 3331, "Call": "inactive"}
{"target": "ps", "DRSC id": "DRSC22989", "infection score, replicate 1": 1.26, "infection score, replicate 2": 5.27, "cell count, replicate 1": 6028, "cell count, replicate 2": 1157, "Call": "inactive"}
{"target": "ps", "DRSC id": "DRSC29315", "infection score, replicate 2": 2.42, "cell count, replicate 1": 319, "cell count, replicate 2": 454, "Call": "inactive"}
{"target": "ps", "DRSC id": "DRSC29574", "infection score, replicate 2": 21.7, "cell count, replicate 1": 341, "cell count, replicate 2": 3613, "Call": "inactive"}
